The values that follow come from the supplement of paper PMC8877412.

± gives the uncertainty stated by the source. Only a part is listed here, and it is no random draw.

The test system of this assay is NCC-PMP1-C1. Kind of assay: cell viability relative to DMSO control; higher = less growth inhibition. Conditions: 10 µM; 72 h. Here is the method: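 NCC-PMP1-C1 pseudomyxoma peritonei cells were seeded in 384-well plates coated with Matrigel and MEF (1e4 cells). Viability was read after 72 h by CCK-8 and expressed as % of the DMSO control, mean ± SD of duplicates.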
For `[As+3].[As+3].[O-2].[O-2].[O-2]` [Arsenic(III) oxide], the cell viability came out at 113 ± 20%.
